Data: US5837729A, “Methods for treating and preventing HIV infection using acetaminophen and derivatives thereof” (priority 1996, dated 1998)

System: HIV
Experiment: HIV infection of MT-4 T lymphocytes, p24 ELISA of culture supernatant on day 2
Type: cell-based
Conditions: Table 1
Procedure: The % values on the right axis were positioned in a fashion that allows estimation of inhibitory effect of the test drug as a function of AGB concentration plotted on the horizontal axis.
The % values on the right axis were positioned in a fashion that allows estimation of the inhibitory effect of test drug as a function of EGB concentration plotted on the horizontal axis.
Indicator MT-4 T lymphocytes (10^5 cells/ml) were plated in triplicates in 96-well culture plates in the presence of serial 10-fold molar dilutions of test compound. Each culture well contained 180 μl of RPMI 1640 culture medium with 10% FBS, L-glutamine, penicillin and streptomycin. Immediately thereafter MT-4 lymphocytes were exposed to 20 μl of viral inoculum corresponding to 100 infectious units per lymphocyte as determined by limiting dilution assay. Two days later--the minimal time period corresponding to full replication cycle of HIV--the culture supernatants were collected and dose-response to drugs was quantitated by measuring the levels of cell-free p24 antigen. The amount of released virus was calculated by comparing the optical density of experimental values from treated wells to commercial p24 standards (Coulter, Hialeah, Fla.).
The serial ten-fold dilutions of AGB, virus, and cells were left without washing in the culture until tested for HIV production 2 days later. […]

Row | Substance | SI, selectivity index, ratio between CC100 and IC100 values
1 | gramicidin | 1,000
2 | nonoxynol-9 | 1
